Results of unrelated studies side by side (data: NIAID ChemDB).

Common to all: tests in culture; agent: Hepatitis C virus; read by: replicon; measure: EC50

a–b is a range or a potency band. Rows are shuffled and stem from different studies. ECn is the concentration giving n% inhibition of infection, replication or growth. An empty or dashed field is not shown.

| structure | strain or isolate | cell line | setting | result |
|---|---|---|---|---|
| CNC(=O)c1c(-c2ccc(F)cc2)oc2cc(C3CNC(=O)C3C(=O)NC)c(OC)cc12 |  | Huh7 |  | <10 µM |
| COC(=O)c1ccc2c(C3CCCCC3)c3n(c2c1)CC(C(=O)O)=Cc1ccccc1-3 |  | Huh7 |  | 0.01–1 µM |
| COc1cccc(CC(=O)N/N=C/c2ccccc2OS(=O)(=O)c2cc(Cl)sc2Cl)c1 |  | Huh7 |  | <5 µM |
| O=C(O)/C=C/c1ccc(NC(=O)C2(NC(=O)c3ccc4c(C5CCCCC5)c5n(c4c3)CCCCNc3ccccc3-5)CCCC2)cc1 |  | Huh7 |  | 0.01–1 µM |
| COc1cccc(CC(=O)N/N=C/c2cc(Cl)ccc2OS(=O)(=O)c2ccc(C)cc2)c1 |  | Huh7 |  | <5 µM |
| C[C@@H](NC(=O)OCc1ccccc1)C(=O)Nc1ccc(C2SC(=NCc3ccccn3)N(C)C2=O)cc1 |  | Huh7 |  | 1–5 µM |
| NC(=O)COc1ccc2c(c1)S(=O)(=O)N=C(c1c(O)c3cc(F)ccc3n(CCC3CC3)c1=O)N2 | 1b 51499 |  |  | 0.0029 µM |
| NS(=O)(=O)c1ccc(CNc2nc(NCC(F)(F)F)c3nc(-c4ccc(F)c(S(=O)(=O)N5CCNCC5)c4)ccc3n2)cc1 |  |  |  | <0.1 µM |
| CS(=O)(=O)NC(=O)c1c(-c2ccc[nH]c2=O)c2c3occc3ccc2n1Cc1ccccc1F |  |  |  | <0.5 µM |
| O=C(NS(=O)(=O)N1CCCC1)c1ccc2c(C3CCCCC3)c3n(c2c1)CC(C(=O)N1CCOCC1)Cc1ccccc1-3 |  | Huh7 |  | 0.01–1 µM |
| C[C@@H](NC(=O)OCc1ccccc1)C(=O)Nc1ccc(C2SC(=Nc3cc(F)cc(C#N)c3)N(Cc3ccco3)C2=O)cc1 |  | Huh7 |  | <0.1 µM |
| O=C(O)c1c(-c2ccc[nH]c2=O)c2c3occc3c(F)cc2n1Cc1cc(=O)[nH]c2ccccc12 |  |  |  | <0.5 µM |
| C=CC1CC1(NC(=O)[C@@H]1C[C@@H](OC(=O)Nc2ccccc2C)CN1C(=O)[C@@H](NC(=O)OC(C)(C)C)C(C)(C)C)C(=O)NS(=O)(=O)C1CC1 | 1b | Huh7 |  | 1–10 µM |
| CC(C)C(=O)Nc1ccc(-c2ccc3nc(N)nc(O[C@H]4CCOC4)c3n2)cc1 |  | Huh7 |  | <0.3 µM |
| CNC(=O)c1c(-c2ccc(F)cc2)oc2cc(N3CCOCC3)c(OCc3cccc(C(=O)OC)c3)cc12 |  | Huh7 |  | <10 µM |
| O=C(O)c1c(-c2ccc[nH]c2=O)c2c3ccccc3c(F)cc2n1Cc1ccccc1F |  |  |  | 1–10 µM |
| CCC(=O)Nc1ccc(-c2ccc3nc(N)nc(NCCS(C)(=O)=O)c3n2)cc1 |  | Huh7 |  | >1 µM |
| C=CC1CC1(NC(=O)[C@@H]1C[C@@H](OC(=O)Nc2cccc(C(F)(F)F)c2)CN1C(=O)[C@@H](NC(=O)OC(C)(C)C)C(C)(C)C)C(=O)NS(=O)(=O)C1CC1 | 1b | Huh7 |  | 1–10 µM |
| O=S(=O)(Cc1ccc(C(F)(F)F)cc1)N/N=C/c1ccccc1NS(=O)(=O)c1ccc(C(F)(F)F)cc1 |  | Huh7 |  | 5–50 µM |
| O=C(Nc1ccc(C2SC(=Nc3cccc(F)c3)N(Cc3ccccn3)C2=O)cc1)[C@H]1CCCN1C(=O)Cc1ccccc1 |  | Huh7 |  | <0.1 µM |
| COc1cc(CNC(=O)c2ccc3c(C4CCCCC4)c4n(c3c2)CC(=O)Nc2ccccc2-4)ccc1O |  | Huh7 |  | 0.01–1 µM |
| COc1cccc(CC(=O)N/N=C/c2ccc(C)cc2OS(=O)(=O)c2ccc(C(F)(F)F)cc2)c1 |  | Huh7 |  | <5 µM |
| O=C(O)c1ccc2c(C3CCCCC3)c3n(c2c1)CCCCNc1ccccc1-3 |  | Huh7 |  | 0.01–1 µM |
| O=C(Nc1ccc(C2SC(=Nc3ccc(F)cc3Cl)N(Cc3ccco3)C2=O)cc1)[C@H]1CCCN1C(=O)OCc1ccccc1 |  | Huh7 |  | 1–5 µM |
| COc1cccc(CC(=O)N/N=C/c2ccccc2OS(=O)(=O)c2ccc(C(C)=O)cc2)c1 |  | Huh7 |  | <5 µM |
| Fc1ccc(-c2ccc3nc(NCc4ccc(-n5cncn5)cc4)nc(NCC(F)(F)F)c3n2)cc1 |  |  |  | <0.1 µM |
| C[C@@H](NC(=O)OCc1ccccc1)C(=O)Nc1ccc(C2SC(=Nc3cccc(F)c3)N(Cc3ccccn3)C2=O)cc1 |  | Huh7 |  | <0.1 µM |
| CNC(=O)c1c(-c2ccc(F)cc2)oc2cc(OCc3ccccc3)c(OC)cc12 |  | Huh7 |  | <10 µM |
| O=C(Nc1ccc(C2SC(=Nc3ccc(N4CCOCC4)cc3)N(Cc3ccccn3)C2=O)cc1)[C@H]1CCCN1C(=O)C1(c2ccc(F)cc2)CCCC1 |  | Huh7 |  | 0.1–1 µM |
| CC1(Oc2nc(NCc3ccc(S(N)(=O)=O)cc3)nc3ccc(-c4ccc(F)cc4)nc23)CC1 |  |  |  | <0.1 µM |
| CNC(=O)c1c(-c2ccc(F)cc2)oc2cc(-c3cccnc3)c(OC)cc12 |  | Huh7 |  | <1 µM |
| O=C(O)c1ccc2c(C3CCCCC3)c3n(c2c1)CCOc1ncccc1-3 |  | Huh7 |  | 1–10 µM |
| O=C(Cc1ccc(F)cc1Cl)N/N=C/c1ccccc1OS(=O)(=O)c1ccc(C(F)(F)F)cc1 |  | Huh7 |  | <5 µM |
| NC(=O)c1ccc(CNc2nc(NCC(F)(F)F)c3nc(-c4ccc(F)cc4)ccc3n2)cc1 |  |  |  | <0.1 µM |
| CS(=O)(=O)NC(=O)c1c(-c2ccc[nH]c2=O)c2c3c(ccc2n1Cc1ccccc1F)OC(F)(F)O3 |  |  |  | >1.5 µM |
| CCOC(=O)/N=C1\SC(c2ccc(NC(=O)[C@H]3CCCN3C(=O)OCc3ccccc3)cc2)C(=O)N1Cc1cccnc1 |  | Huh7 |  | <0.1 µM |
| O=C(Cc1ccccc1)N/N=C/c1ccccc1OS(=O)(=O)c1ccc(Cl)cc1 |  | Huh7 |  | <5 µM |
| C=CC1CC1(NC(=O)[C@@H]1C[C@@H](OC(=O)Nc2ccccc2F)CN1C(=O)[C@@H](NC(=O)OC(C)(C)C)C(C)(C)C)C(=O)NS(=O)(=O)C1CC1 | 1b | Huh7 |  | 1–10 µM |
| C[C@@H]1COc2c1ccc1c2c(-c2ccc[nH]c2=O)c(C(=O)NS(=O)(=O)C2CC2)n1Cc1cc(F)ccc1F |  |  |  | <0.5 µM |
| O=C(Cc1cccc(Cl)c1)N/N=C/c1cccnc1OS(=O)(=O)c1ccc(C(F)(F)F)cc1 |  | Huh7 |  | >50 µM |
| CCc1coc2c1ccc1c2c(-c2ccc[nH]c2=O)c(C(=O)NS(C)(=O)=O)n1Cc1cc(F)ccc1F |  |  |  | <0.5 µM |
| CNC(=O)c1c(-c2ccc(F)cc2)oc2cc(-c3c(C)n[nH]c3C)c(OC(C)C)cc12 |  | Huh7 |  | <1 µM |
| O=C(NS(=O)(=O)C1CC1)c1c(-c2ccc[nH]c2=O)c2c3occc3ccc2n1Cc1ccccc1F |  |  |  | <0.5 µM |
| CCOc1nc(N)nc2ccc(-c3ccc(C(=O)NCC(C)C)cc3)nc12 |  | Huh7 |  | 0.3–1 µM |
| CCOc1nc(N)nc2c1ncn2[C@@H]1O[C@@H]2COP(=O)(OC(C)C)O[C@H]2[C@@]1(C)F | 2a |  | 31 d | 0.42 µM |
| O=C(Nc1ccc(C2SC(=Nc3cccc(F)c3)N(Cc3ccco3)C2=O)cc1)[C@H]1CCCN1C(=O)Cc1ccccc1 |  | Huh7 |  | <0.1 µM |
| O=C(Cc1ccccc1)N/N=C/c1ccccc1OS(=O)(=O)c1cccc(C(F)(F)F)c1 |  | Huh7 |  | 5–50 µM |
| O=C(NC1(C(=O)Nc2ccc(-c3csc(C(=O)O)n3)cc2)CCCC1)c1ccc2c(C3CCCCC3)c3n(c2c1)CCCc1ccccc1-3 |  | Huh7 |  | 0.01–1 µM |
| COCCOc1nc(N)nc2ccc(-c3ccc(C(=O)NC(C)C)cc3)nc12 |  | Huh7 |  | 0.3–1 µM |
| NC(=O)c1cc(Cn2c(C(=O)O)c(-c3ccc[nH]c3=O)c3c4c(c(F)cc32)CCO4)cs1 |  |  |  | 0.5–1.5 µM |
| CNC(=O)c1c(-c2ccccc2)oc2ccc(OCC(F)(F)F)cc12 |  | Huh7 |  | <30 µM |
| C=CC1CC1(NC(=O)[C@@H]1C[C@@H](OC(=O)Nc2cc(Cl)ccc2C)CN1C(=O)[C@@H](NC(=O)OC(C)(C)C)C(C)(C)C)C(=O)NS(=O)(=O)C1CC1 | 1b | Huh7 |  | 1–10 µM |
| CNC(=O)c1c(-c2ccc(Br)c(F)c2)oc2ccc(OC(C)C)cc12 |  | Huh7 |  | <10 µM |
| O=C(O)c1c(-c2ccc[nH]c2=O)c2c3occc3c(F)cc2n1Cc1cc2ccccc2nc1Cl |  |  |  | <0.5 µM |
| C=CC1CC1(NC(=O)[C@@H]1C[C@@H](OC(=O)N(c2ccccc2)c2ccccc2)CN1C(=O)[C@@H](NC(=O)OC(C)(C)C)C(C)(C)C)C(=O)NS(=O)(=O)C1CC1 | 1b | Huh7 |  | 0.1–1 µM |
| CCOc1nc(N)nc2ccc(-c3ccc(NS(=O)(=O)CC)cc3)nc12 |  | Huh7 |  | >1 µM |
| C[C@@H](NC(=O)OCc1ccccc1)C(=O)Nc1ccc(C2SC(=Nc3ccc(C(F)(F)F)cc3)N(Cc3ccco3)C2=O)cc1 |  | Huh7 |  | 1–5 µM |

The first 4 rows once more:

structure,strain or isolate,cell line,setting,result
CNC(=O)c1c(-c2ccc(F)cc2)oc2cc(C3CNC(=O)C3C(=O)NC)c(OC)cc12,,Huh7,,<10 µM
COC(=O)c1ccc2c(C3CCCCC3)c3n(c2c1)CC(C(=O)O)=Cc1ccccc1-3,,Huh7,,0.01–1 µM
COc1cccc(CC(=O)N/N=C/c2ccccc2OS(=O)(=O)c2cc(Cl)sc2Cl)c1,,Huh7,,<5 µM
O=C(O)/C=C/c1ccc(NC(=O)C2(NC(=O)c3ccc4c(C5CCCCC5)c5n(c4c3)CCCCNc3ccccc3-5)CCCC2)cc1,,Huh7,,0.01–1 µM